Anti-infective test results gathered from many reports (values: NIAID ChemDB through PubChem).

All rows: tests on isolated targets; organism: HIV-1; target: Reverse transcriptase; endpoint: inhibition

Lines come from different laboratories, so protocols vary. a–b is a range or a potency band. Percent inhibition refers to the dose given; in toxicity tests it is the harm to the cells. An empty or dashed field is not shown.

compound | dose | strain | read by | changes | result
CC(C)=CC[C@H]1C[C@]2(C[C@H]3CCC(C)(C)C=C3C)C(=O)C3=C(OC(C)(C)CC3)[C@@](C(=O)c3ccccc3)(C2=O)C1(C)C | 200 µg/mL | - | RT activity / radiometric | - | 74.29%
O=C(O[C@@H]1Cc2c(O)cc(O)cc2O[C@@H]1c1cc(O)c(O)c(O)c1)c1cc(O)c(O)c(O)c1 | 10 µg/mL | - | - | - | 10%
C=CC1=C(C)c2cc3[n-]c(cc4[n-]c(cc5nc(cc1n2)C(C)=C5C=C)c(C)c4CCC(=O)O)c(CCC(=O)O)c3C.[Mg+2] | 15 µM | - | nucleotide incorporation / radiometric | - | 47.5%
O=c1oc2c(O)c(O)cc3c(=O)oc4c(O)c(O)cc1c4c23 | 10 µg/mL | - | - | - | 72%
CC(C)=CCC/C(C)=C/Cc1c(O)c(CC=C(C)C)c2c(c1O)C(=O)C1=C[C@H]3CC4C(C)(C)O[C@](CC=C(C)C)(C3=O)[C@]14O2 | 200 µg/mL | - | nucleotide incorporation / radiometric | - | 64%
COC(=O)C(N)CC(=O)COC(=O)[C@H]1O[C@H](O[C@H]2CC[C@]3(C)[C@H]4C(=O)C=C5[C@@H]6C[C@@](C)(C(=O)O)CC[C@]6(C)CC[C@@]5(C)[C@]4(C)CC[C@H]3C2(C)C)[C@H](O[C@@H]2O[C@H](C(=O)O)[C@@H](O)[C@H](O)[C@H]2O)[C@@H](O)[C@@H]1O.S | 500 µg/mL | - | - | - | 62.91%
CC(C)=CCC[C@@H](C)[C@@H]1CC[C@]2(C)C3=C(CC[C@@]12C)[C@@]1(C)CC[C@H](O)C(C)(C)[C@@H]1CC3 | 200 µg/mL | - | RT activity / radiometric | - | 6.8%
O=C(c1cc2ccccc2[nH]1)N1CCN(C(=O)c2ccco2)CC1 | 50 µM | IIIB | RT activity | - | 39.4%
O=C(OCC(OC(=O)c1ccc(O)cc1)C(OC(=O)c1ccc(O)cc1)C(COC(=O)c1ccc(O)cc1)OC(=O)c1ccc(O)cc1)c1ccc(O)cc1 | 50 µM | - | nucleotide incorporation | - | >99%
CC1Oc2cc(O)c3c(=O)c4ccc(O)c(O)c4oc3c2C1(C)C | 200 µg/mL | - | RT activity / radiometric | - | 85.11%
CC(C)=CCc1c2c(c(O)c3c1O[C@@]14C(=C[C@H]5CC1C(C)(C)O[C@]4(CC=C(C)C)C5=O)C3=O)C=CC(C)(C)O2 | 200 µg/mL | - | nucleotide incorporation / radiometric | - | 94.1%
C/C(=C\C=C\[C@@H](C)[C@H]1CC[C@@]2(C)C3CC[C@H]4C(C)(C)C(=O)CC[C@]4(C)[C@@]3(O)[C@@H](O)C[C@]12C)C(=O)O | 200 µg/mL | - | RT activity / radiometric | - | 55.49%
COc1c(O)ccc2c(=O)c3c(O)cccc3oc12 | 200 µg/mL | - | RT activity / radiometric | - | 18.31%
CCN1c2ncc(COc3ccccc3C(=O)OC)cc2C(=O)N(C)c2ccc(Cl)nc21 | 1 µM | - | RT activity | RT-Y188L | 11%
O=c1cc(-c2ccccc2)oc2cc(O)c(O)c(O)c12 | 2 µg/mL | - | nucleotide incorporation | - | 70%
O=c1c2cccc(O)c2oc2cccc(O)c12 | 200 µg/mL | - | RT activity / radiometric | - | 21.97%
Cc1cn([C@H]2C[C@H](N=[N+]=[N-])[C@@H](CP(=O)(O)OP(=O)(O)NP(=O)(O)O)O2)c(=O)[nH]c1=O | 10 µM | - | fluorescence | - | 30–44%
CC(C)Nc1cccnc1N1CCN(C(=O)c2cc3cc4c(cc3[nH]2)OCO4)CC1 | 50 µM | IIIB | RT activity | - | 99.9%
CN(c1ncccc1CO)C1CCN(C(=O)c2cc3cc(NS(C)(=O)=O)ccc3[nH]2)CC1 | 50 µM | IIIB | nucleotide incorporation | RT-P236L | 7%
CC(=O)N(C)/C=C/c1ccc(Br)cc1 | 200 µg/mL | - | ELISA | - | 16.59%
C1CCNCCNCCCNCCNC1 | 17.5 µM | - | - | - | 100%
CCN(/C=C/c1ccccc1Cl)C(C)=O | 200 µg/mL | - | ELISA | - | 59.1%
CC(C)CN1C(=O)c2ccccc2Oc2ncccc21 | 1 µM | - | HPLC | - | 29%
COc1c2c(c3c(c1C(=O)c1ccccc1)OC(C)(C)C=C3)OC(C)(C)C=C2 | 200 µg/mL | - | RT activity / radiometric | - | 21.97%
CSc1c(C)c(SC)n2ccncc12 | 70 µM | IIIB | fluorescence | - | ~1%
CC(C)=CCC/C(C)=C/C[C@]12C=C3C(=O)c4c(O)cc(O)c(CC=C(C)C)c4O[C@]34C(C1)C(C)(C)O[C@]4(CC=C(C)C)C2=O | 200 µg/mL | - | nucleotide incorporation / radiometric | - | 95.4%
CCN1c2ncc(CS(=O)(=O)c3ccccc3)cc2C(=O)N(C)c2ccc(Cl)nc21 | 1 µM | - | RT activity | RT-Y181C | 39%
CC(C)=CCc1c2c(c(O)c3c1O[C@@]14C(=C[C@H]5CC1C(C)(C)O[C@]4(C/C=C(/C)C(=O)O)C5=O)C3=O)C=CC(C)(C)O2 | 200 µg/mL | - | nucleotide incorporation / radiometric | - | 93.4%
O=c1c2cc(O)c(O)cc2oc2cc(O)cc(O)c12 | 200 µg/mL | - | RT activity / radiometric | - | 100%
Cc1cn([C@H]2C[C@H](N=[N+]=[N-])[C@@H](CP(=O)(O)OP(=O)(O)C(Cl)(Cl)P(=O)(O)O)O2)c(=O)[nH]c1=O | 10 µM | - | fluorescence | - | 30–44%
Nc1ncnc2c1ncn2CCOCP(=O)(O)O | 500 µM | - | nucleotide incorporation / radiometric | - | 0%
C1=Cc2cccnc2N(C2CC2)c2ncccc21 | 1 µM | - | nucleotide incorporation | RT-P236 | 99%
CCOc1ccccc1N1CCN(C(=O)c2cc3ccccc3[nH]2)CC1 | 50 µM | IIIB | RT activity | - | 89.6%
Nc1cccnc1N1CCN(C(=O)c2cc3ccccc3[nH]2)CC1 | 100 µM | - | nucleotide incorporation | - | 73%
COC(=O)/C(C)=C/C=C/[C@@H](C)C1CC[C@@]2(C)[C@@H]3CC[C@H]4C(C)(C)C(=O)CC[C@]4(C)C3=CC[C@]12C | 200 µg/mL | - | RT activity / radiometric | - | 78.84%
Oc1cc(O)c2c(c1)O[C@H](c1cc(O)c(O)c(O)c1)[C@H](O)C2 | 10 µg/mL | - | - | - | 0%
COc1cc(O)cc2oc3cc(O)c(O)cc3c(=O)c12 | 200 µg/mL | - | RT activity / radiometric | - | 29.94%
CC(=O)N(/C=C/c1ccccc1Br)C(C)=O | 200 µg/mL | - | ELISA | - | 60.55%
C/C(=C\C=C\C(C)[C@H]1CC[C@@]2(C)[C@@H]3CC[C@H]4C(C)(C)C(=O)CC[C@]4(C)C3=CC[C@]12C)C(=O)O | 200 µg/mL | - | RT activity / radiometric | - | -46.6%
O=C(c1cc2cc3c(cc2[nH]1)OCO3)N1CCN(C(=O)c2ccco2)CC1 | 50 µM | IIIB | RT activity | - | 27.7%
CCN1c2ncc(COc3cccc(C(=O)OC)c3)cc2C(=O)N(C)c2ccc(Cl)nc21 | 1 µM | - | RT activity | RT-Y188L | 0%
CC[C@H](C)[C@H]1NC(=O)[C@@H](NC(=O)[C@@H](CC(C)C)N(C)C(=O)c2cc3ccccc3s2)[C@@H](C)OC(=O)[C@H](Cc2ccc(OC)cc2)N(C)C(=O)[C@@H]2CCCN2C(=O)[C@H](CC(C)C)NC(=O)[C@H](C(C)C)OC(=O)C[C@@H]1O | 0.1 µg/mL | - | nucleotide incorporation | - | ~0%
C/C(=C\CC[C@@H](C)C1CC[C@@]2(C)[C@@H]3CC[C@H]4C(C)(C)C(=O)CC[C@]4(C)[C@@]3(O)CC[C@]12C)C(=O)O | 200 µg/mL | - | RT activity / radiometric | - | 80.75%
O=C(O)[C@H]1O[C@@H](Oc2cc3oc(-c4ccccc4)cc(=O)c3c(O)c2O)[C@H](O)[C@@H](O)[C@@H]1O | 10 µg/mL | - | - | - | 90%
CC(C)=CCc1c2c(c(O)c3c1O[C@@]14C(=C[C@H]5CC1C(C)(C)O[C@]4(C/C=C(\C)CO)C5=O)C3=O)C=CC(C)(C)O2 | 200 µg/mL | - | nucleotide incorporation / radiometric | - | 42.2%
O=C(O)CCCC[C@@H]1CCSS1 | 70 µg/mL | - | RT activity | - | 90%
CC(C)=CC[C@H]1C[C@@]2(C[C@H]3CCC(C)(C)C=C3C)C(=O)[C@](C(=O)c3ccccc3)(C(=O)C3=C2OC(C)(C)C=C3)C1(C)C | 200 µg/mL | - | RT activity / radiometric | - | 20.11%
Cc1cn([C@H]2CC[C@@H](CC(F)(F)P(=O)(O)OP(=O)(O)OP(=O)(O)O)O2)c(=O)[nH]c1=O | 10 µM | - | fluorescence | - | 41–58%

Repeating the final 7 entries:

{"compound": "CC[C@H](C)[C@H]1NC(=O)[C@@H](NC(=O)[C@@H](CC(C)C)N(C)C(=O)c2cc3ccccc3s2)[C@@H](C)OC(=O)[C@H](Cc2ccc(OC)cc2)N(C)C(=O)[C@@H]2CCCN2C(=O)[C@H](CC(C)C)NC(=O)[C@H](C(C)C)OC(=O)C[C@@H]1O", "dose": "0.1 µg/mL", "read by": "nucleotide incorporation", "result": "~0%"}
{"compound": "C/C(=C\\CC[C@@H](C)C1CC[C@@]2(C)[C@@H]3CC[C@H]4C(C)(C)C(=O)CC[C@]4(C)[C@@]3(O)CC[C@]12C)C(=O)O", "dose": "200 µg/mL", "read by": "RT activity / radiometric", "result": "80.75%"}
{"compound": "O=C(O)[C@H]1O[C@@H](Oc2cc3oc(-c4ccccc4)cc(=O)c3c(O)c2O)[C@H](O)[C@@H](O)[C@@H]1O", "dose": "10 µg/mL", "result": "90%"}
{"compound": "CC(C)=CCc1c2c(c(O)c3c1O[C@@]14C(=C[C@H]5CC1C(C)(C)O[C@]4(C/C=C(\\C)CO)C5=O)C3=O)C=CC(C)(C)O2", "dose": "200 µg/mL", "read by": "nucleotide incorporation / radiometric", "result": "42.2%"}
{"compound": "O=C(O)CCCC[C@@H]1CCSS1", "dose": "70 µg/mL", "read by": "RT activity", "result": "90%"}
{"compound": "CC(C)=CC[C@H]1C[C@@]2(C[C@H]3CCC(C)(C)C=C3C)C(=O)[C@](C(=O)c3ccccc3)(C(=O)C3=C2OC(C)(C)C=C3)C1(C)C", "dose": "200 µg/mL", "read by": "RT activity / radiometric", "result": "20.11%"}
{"compound": "Cc1cn([C@H]2CC[C@@H](CC(F)(F)P(=O)(O)OP(=O)(O)OP(=O)(O)O)O2)c(=O)[nH]c1=O", "dose": "10 µM", "read by": "fluorescence", "result": "41–58%"}